PubChem BioAssay AID504761 | Drosophila RNAi Screening Center | 2011

Screen: 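Insect host genes that dengue virus relies on to spread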 (primary screen)
System: D.Mel-2 cells from Drosophila
Reagent: long dsRNA against Drosophila genes
Challenge: infection with dengue virus type 2; dose and infection time not stated
Measured: 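Per well on two replicate plates, imaging gave the percent of cells positive for viral envelope protein, ranked by infection, and a nuclear count of cells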
Reading the numbers: infection score: higher = more virus-infected cells
Active means: 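Very low infection ranking in both replicate wells (chance probability at most 0.065), then a retest showing infection dropped 1.5-fold or more at p below 0.05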
Calls: active = confirmed: knock-down lowers infection; inactive = not picked or not confirmed
The screen tested about 22,000 reagents; below is a random part of those with a known target gene and a result. In the full data, 116 (0.52%) are marked active. 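Calls depend on retest data that are not deposited; infection was ranked per plate without normalising between plates; the unit of the infection score is not given.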 A number with no mark means an inactive call. Further read-outs or replicates are left out here. Not given: the amount of reagent, the time to read-out.

gus [DRSC04885] — infection score, replicate 1 = 15.1
gus [DRSC04886] — infection score, replicate 1 = 14.5
gus [DRSC27153] — infection score, replicate 1 = 6.43
Nup93-1 [DRSC19344] — infection score, replicate 1 = 19.1
Or92a [DRSC16771] — infection score, replicate 1 = 2.28
Nacalpha [DRSC07477] — infection score, replicate 1 = 26.8
Nacalpha [DRSC25351] — infection score, replicate 1 = 3.03
Pde6 [DRSC16401] — infection score, replicate 1 = 5.43
Pde6 [DRSC16402] — infection score, replicate 1 = 7.66
Pde6 [DRSC16403] — infection score, replicate 1 = 1.45
UQCR-14L [DRSC15288] — infection score, replicate 1 = 3.18
UQCR-14L [DRSC22425] — infection score, replicate 1 = 2.32
UQCR-14L [DRSC25417] — infection score, replicate 1 = 1.73
GCC185 [DRSC15493] — infection score, replicate 1 = 5.06
Gr43a [DRSC06658] — infection score, replicate 1 = 1.97
Syx7 [DRSC11763] — infection score, replicate 1 = 2.3
CkIIalpha-i1 [DRSC11115] — infection score, replicate 1 = 1.37
Jra [DRSC07447] — infection score, replicate 1 = 23.6
Jra [DRSC27606] — infection score, replicate 1 = 9.19
CG31815 [DRSC01548] — infection score, replicate 1 = 3.3
CG31815 [DRSC29263] — infection score, replicate 1 = 12.4

2 entries already listed, sorted by “infection score, replicate 1”, low to high:
Pde6 [DRSC16403] — infection score, replicate 1 = 1.45
UQCR-14L [DRSC15288] — infection score, replicate 1 = 3.18
